Test results taken from article PMC10108276, “Siderophore‐Linked Ruthenium Catalysts for Targeted Allyl Ester Prodrug Activation within Bacterial Cells” (Chemistry (Weinheim an Der Bergstrasse, Germany), 2022).

Test: ICP-MS measurement of iron and ruthenium content of media
Conditions: additive at 100 µM

**Q.** With `[Cl][Fe]([Cl])[Cl]` [FeCl3] as the molecule, how does the “[56Fe] of growth medium” value (chelexed MHII, 200 µM bpy, 1% DMSO) read?
**A.** 155 µM

**Q.** And the “[101Ru] of growth medium” value (lowest limit of quantification = 36.2 ppb)?
**A.** < LLOQ
